# This is a selection; strong and weak results do not stand in their true shares. Activity calls are given as the source filed them. Cut-off read from the data, not from the text of the source: active = inhibition above about 33%; inactive = the rest.
# Assay: compounds suppressing VP16-driven luciferase signal – cell-based, luminescence, high throughput, counter-screen for LRH-1 inverse agonist project (AID 651615)
# Conditions: Gal4-VP16 luciferase reporter cells, at 3.6 µM, hits give high values
smiles,measurement,value
O=[N+]([O-])c1cc([N+](=O)[O-])c(-c2cnn(-c3ccccc3)c2)c([N+](=O)[O-])c1,inhibition,inactive: -11%

# Reference: PubChem BioAssay
